## HIV-1 5' UTR: DMS reactivities by position

Sequence of the HIV-1 NL4-3 5' RNA, positions 1 to 437, as numbered in the source:
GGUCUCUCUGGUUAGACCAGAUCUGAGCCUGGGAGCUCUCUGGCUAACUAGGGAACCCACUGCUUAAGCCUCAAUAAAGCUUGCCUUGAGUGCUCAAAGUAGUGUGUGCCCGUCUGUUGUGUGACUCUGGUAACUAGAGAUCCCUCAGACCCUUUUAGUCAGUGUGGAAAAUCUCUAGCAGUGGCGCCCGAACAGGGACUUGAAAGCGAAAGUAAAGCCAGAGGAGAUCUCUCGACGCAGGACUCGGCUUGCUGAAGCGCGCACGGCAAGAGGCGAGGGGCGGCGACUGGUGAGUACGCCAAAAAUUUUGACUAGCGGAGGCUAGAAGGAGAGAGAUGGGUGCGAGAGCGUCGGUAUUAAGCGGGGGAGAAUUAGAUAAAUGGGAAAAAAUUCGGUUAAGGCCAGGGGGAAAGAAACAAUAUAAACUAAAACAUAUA

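Mutant RNA libraries with 1G, 2G or 3G starts, with or without cap, were folded at 37 °C for 30 min. Monomer and dimer bands were cut from native gels after folding in high salt (300 mM KCl, 5 mM MgCl2) or low salt (40 mM KCl, 0.1 mM MgCl2). Each band was probed in the gel with DMS (170 mM, 15 min, 37 °C), with ethanol as control, and sequenced.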

Values are winsor-normalised DMS reactivities of A and C; higher means more reactive, usually unpaired.
One numbering serves 1G, 2G and 3G.
A position is written with its base.

position | 1G uncapped high-salt dimer | 3G uncapped low-salt dimer | 1G uncapped high-salt monomer | 3G capped low-salt monomer
C29 | 0.13 | 0.10 | 0.11 | 0.09
C36 | 0.07 | 0.05 | 0.04 | 0.02
C38 | 0.04 | 0.05 | 0.04 | 0.02
C48 | 0.14 | 0.05 | 0.08 | 0.02
C60 | 0.10 | 0.55 | 0.26 | 0.79
C70 | 0.04 | 0.06 | 0.04 | 0.02
C72 | 0.16 | 0.14 | 0.11 | 0.08
C84 | 0.73 | 0.39 | 0.56 | 0.13
A101 | 0.15 | 0.30 | 0.20 | 0.27
C111 | 0.23 | 0.13 | 0.34 | 0.31
A132 | 0.55 | 0.43 | 0.55 | 0.43
C134 | 0.15 | 0.19 | 0.15 | 0.15
C144 | 0.04 | 0.05 | 0.04 | 0.02
C146 | 0.11 | 0.10 | 0.12 | 0.12
A149 | 0.07 | 0.07 | 0.09 | 0.08
A177 | 0.23 | 0.27 | 0.21 | 0.19
C187 | 0.04 | 0.05 | 0.04 | 0.02
C188 | 0.08 | 0.06 | 0.07 | 0.05
C193 | 0.77 | 0.93 | 0.80 | 0.91
A203 | 0.52 | 0.47 | 0.52 | 0.49
A204 | 0.74 | 0.62 | 0.70 | 0.65
C207 | 0.63 | 0.50 | 0.47 | 0.44
A209 | 0.43 | 0.41 | 0.46 | 0.42
A210 | 0.49 | 0.43 | 0.56 | 0.46
A211 | 0.50 | 0.45 | 0.41 | 0.41
A216 | 0.70 | 0.69 | 0.56 | 0.61
C219 | 0.05 | 0.05 | 0.04 | 0.02
A225 | 0.83 | 0.82 | 0.80 | 0.74
A227 | 0.24 | 0.26 | 0.30 | 0.31
C231 | 0.11 | 0.14 | 0.15 | 0.22
C233 | 0.15 | 0.19 | 0.27 | 0.37
A235 | 0.78 | 0.67 | 0.69 | 0.53
C236 | 0.41 | 0.46 | 0.51 | 0.47
A239 | 0.74 | 0.66 | 0.59 | 0.55
A242 | 1.12 | 1.03 | 0.93 | 0.69
C245 | 0.06 | 0.07 | 0.21 | 0.37
C248 | 0.04 | 0.05 | 0.06 | 0.06
C252 | 0.05 | 0.09 | 0.21 | 0.32
A256 | 1.09 | 0.93 | 0.87 | 0.64
C258 | 0.22 | 0.28 | 0.35 | 0.26
C262 | 0.22 | 0.27 | 0.39 | 0.32
A263 | 0.90 | 0.80 | 0.24 | 0.18
C264 | 0.19 | 0.23 | 0.39 | 0.48
C267 | 0.07 | 0.06 | 0.18 | 0.11
A269 | 0.26 | 0.26 | 0.52 | 0.37
C274 | 0.24 | 0.26 | 0.60 | 0.85
A276 | 0.38 | 0.40 | 0.98 | 1.15
C281 | 0.42 | 0.41 | 0.39 | 0.38
C284 | 0.16 | 0.15 | 0.19 | 0.20
C299 | 0.06 | 0.06 | 0.06 | 0.05
A301 | 0.27 | 0.24 | 0.27 | 0.23
C312 | 0.08 | 0.10 | 0.11 | 0.11
A319 | 0.94 | 0.81 | 0.90 | 0.80
C322 | 0.04 | 0.05 | 0.04 | 0.02
A327 | 1.11 | 1.10 | 1.01 | 1.00
A330 | 0.81 | 0.88 | 0.91 | 0.96
A334 | 0.44 | 0.39 | 0.53 | 0.46
A371 | 0.94 | 0.99 | 0.95 | 0.98
A376 | 0.76 | 0.70 | 0.73 | 0.71
A379 | 0.61 | 0.55 | 0.57 | 0.59
A380 | 0.82 | 0.75 | 0.83 | 0.84
A390 | 0.88 | 0.95 | 0.92 | 0.97
A412 | 0.51 | 0.56 | 0.49 | 0.52
A414 | 0.51 | 0.49 | 0.46 | 0.44
A415 | 0.25 | 0.23 | 0.21 | 0.18
A424 | 0.39 | 0.31 | 0.33 | 0.27
A429 | 0.73 | 0.84 | 0.69 | 0.74
C432 | 0.90 | 0.53 | 0.86 | 0.89
A433 | 0.72 | 0.60 | 0.71 | 0.74
A435 | 0.49 | 0.43 | 0.50 | 0.50

A selection of 5 entries from above:

{"position": "A415", "1G uncapped high-salt dimer": 0.25, "3G uncapped low-salt dimer": 0.23, "1G uncapped high-salt monomer": 0.21, "3G capped low-salt monomer": 0.18}
{"position": "C193", "1G uncapped high-salt dimer": 0.77, "3G uncapped low-salt dimer": 0.93, "1G uncapped high-salt monomer": 0.80, "3G capped low-salt monomer": 0.91}
{"position": "C231", "1G uncapped high-salt dimer": 0.11, "3G uncapped low-salt dimer": 0.14, "1G uncapped high-salt monomer": 0.15, "3G capped low-salt monomer": 0.22}
{"position": "A379", "1G uncapped high-salt dimer": 0.61, "3G uncapped low-salt dimer": 0.55, "1G uncapped high-salt monomer": 0.57, "3G capped low-salt monomer": 0.59}
{"position": "C322", "1G uncapped high-salt dimer": 0.04, "3G uncapped low-salt dimer": 0.05, "1G uncapped high-salt monomer": 0.04, "3G capped low-salt monomer": 0.02}

The measurements come from Ye et al. 2022 (doi:10.1038/s41594-022-00746-2).